Measured values from ChEMBL document CHEMBL1155893 (J Med Chem, 2008).

What was measured:
[1] = Selectivity index, ratio of IC50 for multidrug-resistant Plasmodium falciparum TM91C235 to IC50 for chloroquine and mefloquine-susceptible Plasmodium falciparum D6; assay type: functional
[2] = Selectivity index, ratio of IC50 for multidrug-resistant Plasmodium falciparum chloroquine-resistant W2 to IC50 for chloroquine and mefloquine-susceptible Plasmodium falciparum D6; assay type: functional

Structure (SMILES): Clc1ccc2c(NCCCNCCC34CC5CC(CC(C5)C3)C4)ccnc2c1
- Ratio IC50 [1]: 7.35
- Ratio IC50 [2]: 2.41

Structure (SMILES): Clc1ccc2c(NCCNCCC34CC5CC(CC(C5)C3)C4)ccnc2c1
- Ratio IC50 [1]: 1.79
- Ratio IC50 [2]: 2.27

Structure (SMILES): Clc1ccc2c(NCCNCC34CC5CC(CC(C5)C3)C4)ccnc2c1
- Ratio IC50 [1]: 1.81
- Ratio IC50 [2]: 1.85

Structure (SMILES): Clc1ccc2c(NCCCNCC34CC5CC(CC(C5)C3)C4)ccnc2c1
- Ratio IC50 [1]: 3.15
- Ratio IC50 [2]: 3.13
